Pooled drug test results. Numbers come from NIAID ChemDB, via PubChem.

Shared fields: tests in culture; species: Mycobacterium tuberculosis

Neighbouring rows are from separate reports. A number after MIC or MFC names an inhibition level or a share of isolates. MIC bound: limit read from a one-dose screen. Inhibition is in % at the dose shown (toxicity tests: loss of growth or viability). An empty or dashed field is not shown. Two numbers with a dash give a range or band. ECn is the concentration giving n% inhibition of infection, replication or growth.

SMILES	dose	cell line	mutations	read-out	method	strain	setting	value
Cc1cc2c(cc1C)NC1=C(N2)OC(c2ccc3c(c2)OCO3)C1=O	-	-	-	MIC bound	BACTEC	H37Rv	-	>12.5 µg/mL
Nc1ncccc1/C=C/C(=O)c1ccc2c(c1)-c1ccccc1C2	-	-	-	EC50	-	-	-	<12.5 µg/mL
CC1CCC2(CC1)SC(C)C(=O)N2NC(=O)Cc1csc2nc(-c3ccc(Cl)cc3)cn12	-	-	-	MIC	-	H37Rv	-	>6.25 µg/mL
COc1ccccc1/C=C/C(=O)c1ccccc1O	-	-	-	EC50	-	-	-	>12.5 µg/mL
N/C(=N\N=C\c1ccc(Br)cc1)c1ccncc1	-	-	-	MIC	-	1481	-	64 µg/mL
O=C(Nc1ccc(S(=O)(=O)Nc2nccs2)cc1)c1cccnc1Nc1cccc(Cl)c1	12.5 µg/mL	-	-	inhibition	BACTEC	H37Rv	-	81%
c1ccc(Nc2nc(-c3ccn[nH]3)cs2)nc1	-	-	-	MIC	visual reading	H37Rv	-	20 µM
CCC1CCC2(CC1)SC(C)C(=O)N2NC(=O)Cc1csc2nc(-c3ccc(Cl)cc3)cn12	-	VERO	-	MIC	-	H37Rv	-	6.25 µg/mL
O=c1cc(-c2ccccc2)oc2ccc(-c3ccccc3-c3cc(=O)c4ccccc4o3)cc12	-	-	-	EC50	-	-	-	>12.5 µg/mL
c1ccc(Nc2nc(-c3ccccn3)cs2)cc1	-	-	-	MIC	visual reading	H37Rv	-	3.7 µM
CC1CCC2(OC1)OC1CC3C4CCC5CC(O)CCC5(C)C4C(O)CC3(C)C1C2C	-	-	-	MIC bound	BACTEC	H37Rv	-	>12.5 µg/mL
Nc1ncc(F)c2c1ncn2[C@@H]1O[C@H](CO)[C@@H](O)[C@H]1O	-	-	-	MIC	-	SRICK1::ADOK	-	10–100 µg/mL
CN1CCN(CCOC(=O)N2c3ccccc3Sc3ccccc32)CC1	-	-	-	MIC bound	BACTEC	H37Rv	-	>12.5 µg/mL
O=C(c1cn(-c2ccc(Cl)cc2)nn1)c1ccco1	12.5 µg/mL	-	-	inhibition	-	H37Rv	-	17%
O=C(Cc1csc2nc(-c3ccc(Cl)cc3)cn12)NN1C(=O)CSC12CCCCC2	6.25 µg/mL	-	-	inhibition	-	H37Rv	-	0%
CC(=O)Nc1nc(-c2ccccn2)cs1	-	-	-	MIC	visual reading	H37Rv	-	>20 µM
CCCCCCCCCCCCCCCC(=O)OCC1OC(CO)(OC2OC(CO)C(O)C(O)C2O)C(O)C1O	-	-	-	MIC bound	BACTEC	H37Rv	-	>12.5 µg/mL
Cc1coc(C)c1C(=O)c1cn(-c2ccc(Cl)cc2)nn1	-	-	-	MIC	-	H37Rv	-	>12.5 µg/mL
CCCCC/C(CC1NC(=S)NC1=O)=N\NC(=O)c1ccncc1	-	-	KatG G285V	MIC	visual reading / absorbance	H37Rv	-	3.1 µM
CN[C@@H]1[C@H](O[C@H]2[C@H](O[C@H]3[C@H](O)[C@@H](O)[C@H](N=C(N)N)[C@@H](O)[C@@H]3N=C(N)N)O[C@@H](C)[C@]2(O)C=O)O[C@@H](CO)[C@H](O)[C@H]1O	-	-	-	MIC	-	Clinical isolate 2	-	50 µg/mL
Nc1nnc(-c2ccc([N+](=O)[O-])o2)s1	-	-	-	MIC bound	resazurin	H37Rv	-	>6.25 µg/mL
O=C(Cc1csc2nc(-c3ccc(Cl)cc3)cn12)NN=C1CCCC1	-	-	-	EC50	-	H37Rv	-	<6.25 µg/mL
CCOC(=O)C1=NN(c2ccccc2)C(=O)C1N=Nc1ccc(S(=O)(=O)Nc2nnc(C)s2)cc1	-	-	-	MIC bound	BACTEC	H37Rv	-	>12.8 µg/mL
CCn1cc(C(=O)O)c(=O)c2cc(F)c(N3CCNCC3)cc21	-	-	-	MIC90	-	134 isolates	-	8 µg/mL
NNC(=O)c1ccncc1	-	-	-	MIC	-	Isolate 40	-	2 µg/mL
CO[C@H]1/C=C/O[C@@]2(C)Oc3c(C)c(O)c4c(O)c(c(/C=N/N5CCN(C)CC5)c(O)c4c3C2=O)NC(=O)/C(C)=C\C=C\[C@H](C)[C@H](O)[C@@H](C)[C@@H](O)[C@@H](C)[C@H](OC(C)=O)[C@@H]1C	-	-	-	MIC	-	Clinical isolate 12	-	0.1 µg/mL
CN[C@H](CC(C)C)C(=O)N[C@H]1C(=O)N[C@@H](CC(N)=O)C(=O)N[C@H]2C(=O)N[C@H]3C(=O)N[C@H](C(=O)N[C@H](C(=O)O)c4cc(O)cc(O)c4-c4cc3ccc4O)[C@H](O)c3ccc(c(Cl)c3)Oc3cc2cc(c3O[C@@H]2O[C@H](CO)[C@@H](O)[C@H](O)[C@H]2O[C@H]2C[C@](C)(N)[C@H](O)[C@H](C)O2)Oc2ccc(cc2Cl)[C@H]1O	-	-	-	MIC	broth dilution / agar	H37Rv	-	40 µg/mL
N/C(=N\N=C\c1ccccc1Cl)c1ccncc1	-	-	-	MIC	-	1054	-	8 µg/mL
COc1cccc(/C=C/C(=O)c2ccc(F)cc2)c1F	-	-	-	MIC	MTT	H37Rv	7 d	32 µg/mL
c1ccc(Nc2nc(-c3ccncn3)cs2)nc1	-	-	-	MIC	visual reading	H37Rv	-	15 µM
O=c1cc(-c2ccc(O)c(-c3c(O)cc(O)c4c(=O)cc(-c5ccc(O)cc5)oc34)c2)oc2cc(O)cc(O)c12	-	-	-	EC50	-	H37Rv	-	>12.5 µg/mL
N#Cc1ccc(/C=N/N=C(\N)c2ccncc2)cc1	-	-	-	MIC	-	1342	-	>256 µg/mL
O=C(/C=C/c1ccccc1Cl)c1ccccc1	-	-	-	MIC	MTT	H37Rv	21 d	32 µg/mL
N/C(=N\N=C\c1ccc([N+](=O)[O-])cc1)c1ccncc1	-	-	-	MIC	-	1054	-	>256 µg/mL
CC(=O)Oc1ccccc1C(=O)Nc1ncc([N+](=O)[O-])s1	-	-	-	MIC	visual reading	LAM spoligotype 17	-	14.7 µg/mL
Cc1ccc(C(=O)/C=C/c2ccccc2)cc1	-	-	-	MIC	resazurin	H37Rv	21 d	32 µg/mL
CCO/C=C1\N=C(c2cc(OC)cc(OC)c2)OC1=O	12.5 µg/mL	-	-	inhibition	BACTEC	H37Rv	-	-18%
CCC1CCC2(CC1)SC(C)C(=O)N2NC(=O)Cc1csc2nc(-c3ccccc3)cn12.O.O	6.25 µg/mL	VERO	-	inhibition	-	H37Rv	-	99%
Nc1nnc2nc(C(C(=O)c3ccccc3Cl)c3nc4nnc(N)n4[nH]c3=O)c(=O)[nH]n12	12.5 µg/mL	-	-	inhibition	BACTEC	H37Rv	-	18%
COc1cc(/C=N/N=C(\N)c2ccncc2)cc(OC)c1	-	-	-	MIC	-	1481	-	256 µg/mL
Clc1ccc2c(c1)nc(-c1ccccn1)n2CCc1ccncc1	6.25 µg/mL	-	-	inhibition	BACTEC	H37Rv	-	68%
O=C(N/N=C(\c1nc2ccc([N+](=O)[O-])cc2[nH]c1=O)C(O)c1ccc([N+](=O)[O-])cc1)c1ccncc1	-	-	inhA 15C to T	MIC	visual reading / absorbance	-	-	25 µM
COc1ccc(C2CC(c3ccc(O)c(C)c3)=NN2)cc1	-	-	-	MIC	-	H37Rv	-	>6.25 µg/mL
COc1ccc(/C=C/C(=O)c2c(O)cccc2OC)cc1	12.5 µg/mL	-	-	inhibition	-	-	-	75%
O=C(NNC(=O)c1ccc(Cl)cc1Cl)c1ccc2ccccc2c1	-	-	-	MIC bound	BACTEC	H37Rv	-	>12.5 µg/mL
Nc1nc(F)c(F)c2c1NCN2[C@@H]1O[C@H](CO)[C@@H](O)[C@H]1O	-	-	-	MIC	-	SRICK1	-	>100 µg/mL
COc1ccc(C(=O)/C=C/c2ccco2)c(O)c1	12.5 µg/mL	-	-	inhibition	-	-	-	3%
C[C@@H](O)[C@H]1C(=O)N2C(C(=O)O)=C(SC3CN(C4=NCCS4)C3)S[C@H]12	-	-	-	MIC	visual reading	H37Rv	-	0.5 µg/mL
N/C(=N\N=C\c1cccc(Br)c1)c1ccncc1	-	-	-	MIC	-	1054	-	32 µg/mL
Nc1nc(F)c(F)c2c1ncn2[C@@H]1O[C@H](CO)[C@@H](O)[C@H]1O	-	-	-	MIC	-	SRICK1	-	>100 µg/mL
C=CCn1c(-c2ccccn2)n[nH]c1=S	-	-	-	MIC bound	BACTEC	H37Rv	-	>12.5 µg/mL
CC(=O)c1cn[nH]n1	-	-	-	MIC	-	H37Rv	-	>12.5 µg/mL
NNC(=O)c1ccncc1	-	-	-	MIC	-	Clinical isolate 4	-	0.1 µg/mL
O=C(c1ccc(Br)cc1)c1cn(-c2ccc(Cl)cc2)nn1	-	-	-	MIC	-	H37Rv	-	>12.5 µg/mL
CC(=O)N[C@H]1[C@@H](O[C@@H]2O[C@H](C[C@@H](O)[C@H]3O[C@@H](n4ccc(=O)[nH]c4=O)[C@H](O)[C@@H]3O)[C@H](O)[C@H](O)[C@H]2NC(=O)/C=C/CC(C)C)O[C@H](CO)[C@@H](O)[C@@H]1O	-	-	-	MIC	-	PAS-R	-	1.6 µg/mL
FC(F)(F)c1ccccc1Nc1nc(-c2ccccc2)cs1	-	-	-	MIC	visual reading	H37Rv	-	>20 µM
COc1ccc2cc1-c1cc(ccc1O)C[C@H]1c3cc4c(cc3CCN1C)Oc1c(OC)cc3c(c1O4)[C@H](C2)N(C)CC3	-	-	-	MIC	-	KM-R	-	3.1 µg/mL
CC1CCCC2(C1)SCC(=O)N2NC(=O)Cc1csc2nc(-c3ccc(Cl)cc3)cn12	-	-	-	EC50	-	H37Rv	-	>6.25 µg/mL
CC[N+](C)(CC)CCNc1cc2c(c3c(=O)c4ccccc4sc13)CCCC2	-	-	-	MIC bound	BACTEC	H37Rv	-	>12.5 µg/mL
O=C(Nc1ccn(-c2ccccn2)n1)NC1CCCC1	-	-	-	MIC	visual reading	H37Rv	-	>20 µM
COc1ccc2nccc(/C=C3/C(OC(=O)NS(=O)(=O)c4ccc(C)cc4)C4CCN3CC4)c2c1	-	-	-	MIC bound	BACTEC	H37Rv	-	>12.5 µg/mL
N/C(=N\N=C\c1ccc(Cl)cc1)c1ccncc1	-	-	-	MIC	-	H37Rv	-	32 µg/mL
CC[C@@H](CO)NCCN[C@@H](CC)CO	-	-	-	MIC	broth dilution / resazurin	MDR10	-	16 µg/mL
CC(=O)Nc1ncc([N+](=O)[O-])s1	-	-	-	MIC bound	resazurin	H37Rv	-	>6.25 µg/mL
FC(F)(F)c1ccccc1Nc1nc(-c2ccc3ccccc3c2)cs1	-	-	-	MIC	visual reading	H37Rv	-	>20 µM
O=C(/C=C/c1ccc(F)cc1Cl)c1ccccc1	-	-	-	MIC	MTT	H37Rv	-	32 µg/mL
COc1ccc(C2Oc3ccccc3C(=O)C2O)cc1	-	-	-	EC50	-	-	-	>12.5 µg/mL
O=C(/C=C/c1ccccc1)c1ccccc1	-	-	-	MIC	MTT	H37Rv	-	32 µg/mL
CC1CCCC2(C1)SCC(=O)N2NC(=O)Cc1csc2nc(-c3ccccc3)cn12.O	-	-	-	MIC	-	H37Rv	-	>6.25 µg/mL
O=C(/C=C/c1cccc(O)c1)c1ccccc1O	12.5 µg/mL	-	-	inhibition	-	H37Rv	-	18%
NNC(=O)c1ccncc1	-	-	KatG G285V	MIC	visual reading / absorbance	H37Rv	-	0.1 µM
Cc1cc(C(=O)/C=C/c2c(Cl)cccc2Cl)ccc1O	-	-	-	MIC	-	H37Rv	-	6.25 µg/mL
CCN1CCC[C@H]1SC1=C(C(=O)O)N2C(=O)[C@H]([C@@H](C)O)[C@H]2S1	-	-	-	MIC	visual reading	H37Rv	-	4 µg/mL
Cc1ccc(/C=N/N=C(\N)c2ccncc2)cc1	-	-	-	MIC	-	1481	-	16 µg/mL
Cc1cc(C(=O)/C=C/c2ccccc2Cl)ccc1O	6.25 µg/mL	-	-	inhibition	-	H37Rv	-	88%
COc1c(OC2OC(CO)C(O)C(O)C2O)cc2c(c1OC)-c1ccc(OC)c(=O)cc1C(NC(C)=O)CC2	-	-	-	MIC	BACTEC	H37Rv	-	≥128 µg/mL
Cc1ccc(C(=O)/C=C/c2ccccc2)c(F)c1	-	-	-	MIC	MTT	H37Rv	21 d	32 µg/mL
C=C(C)C1CC=C(C)/C(=N/NC(=O)c2cccnc2)C1	-	-	KatG S315T	MIC	visual reading / absorbance	-	-	50 µM
CCC1CCC(=NNC(=O)Cc2csc3nc(-c4ccc(Cl)cc4)cn23)CC1	-	-	-	MIC	-	H37Rv	-	<6.25 µg/mL
Cc1cc(C2=NNC(c3ccc(F)cc3)C2)ccc1O	6.25 µg/mL	-	-	inhibition	-	H37Rv	-	85%
COc1ccccc1N1CCN(C2NC(CC(=O)c3ccccc3)NN2C)CC1	6.25 µg/mL	-	-	inhibition	resazurin	H37Rv	-	14%
O=C(NN1C(=O)CS(=O)(=O)C1c1ccc(C(F)(F)F)cc1)c1ccncc1	-	-	KatG S315T	MIC	visual reading / absorbance	-	-	50 µM
CN1C(=O)/C(=N\n2c(-c3ccccc3)nc3ccccc3c2=O)c2ccccc21	-	-	-	MIC bound	BACTEC	H37Rv	-	>12.8 µg/mL
COc1ccc(C(=O)/C=C/c2ccc(F)cc2)cc1F	-	-	-	MIC	resazurin	H37Rv	21 d	128 µg/mL

The last 5 rows once more:

Cc1cc(C2=NNC(c3ccc(F)cc3)C2)ccc1O ; dose: 6.25 µg/mL ; read-out: inhibition ; strain: H37Rv ; value: 85%
COc1ccccc1N1CCN(C2NC(CC(=O)c3ccccc3)NN2C)CC1 ; dose: 6.25 µg/mL ; read-out: inhibition ; method: resazurin ; strain: H37Rv ; value: 14%
O=C(NN1C(=O)CS(=O)(=O)C1c1ccc(C(F)(F)F)cc1)c1ccncc1 ; mutations: KatG S315T ; read-out: MIC ; method: visual reading / absorbance ; value: 50 µM
CN1C(=O)/C(=N\n2c(-c3ccccc3)nc3ccccc3c2=O)c2ccccc21 ; read-out: MIC bound ; method: BACTEC ; strain: H37Rv ; value: >12.8 µg/mL
COc1ccc(C(=O)/C=C/c2ccc(F)cc2)cc1F ; read-out: MIC ; method: resazurin ; strain: H37Rv ; setting: 21 d ; value: 128 µg/mL